Test results reported in patent US6881741B2 (ViroChem Pharma Inc., priority 2001, dated 2005).
Read-outs that look alike come from different tables or passages of the source.

Chains of the proteins cited; added tags and fusions are not shown. Residues count along the entry.
UniProt P26663, 2420-3010 limits assumed: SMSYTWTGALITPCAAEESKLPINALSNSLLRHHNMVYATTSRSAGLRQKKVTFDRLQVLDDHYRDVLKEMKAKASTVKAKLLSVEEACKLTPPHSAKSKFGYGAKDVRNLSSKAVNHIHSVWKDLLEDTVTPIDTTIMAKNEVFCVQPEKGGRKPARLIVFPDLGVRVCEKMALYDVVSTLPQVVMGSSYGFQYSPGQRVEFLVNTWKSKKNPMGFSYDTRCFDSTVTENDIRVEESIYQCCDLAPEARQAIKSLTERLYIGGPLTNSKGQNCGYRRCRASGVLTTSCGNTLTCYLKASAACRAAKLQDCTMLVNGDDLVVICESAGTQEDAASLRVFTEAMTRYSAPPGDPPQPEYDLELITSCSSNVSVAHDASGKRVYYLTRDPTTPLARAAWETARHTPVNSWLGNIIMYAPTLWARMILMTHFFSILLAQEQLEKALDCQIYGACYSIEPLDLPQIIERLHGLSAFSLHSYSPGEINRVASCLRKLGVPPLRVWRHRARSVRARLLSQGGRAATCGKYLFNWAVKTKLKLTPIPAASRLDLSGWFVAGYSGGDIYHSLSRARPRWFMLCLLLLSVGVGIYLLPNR

Target: recombinant HCV NS5B (HCV RNA-dependent RNA polymerase) (Hepatitis C virus genotype 1b, UniProt P26663)
Test: In vitro HCV RdRp Flashplate scintillation proximity assay (STREP-FLASH ASSAY)
Assay type: biochemical
[1] = related polymerase activity (Example 27 list)
[2] = read-out: IC50 (polymerase activity), HCV polymerase activity, list of compounds of Example 27

| Structure (SMILES) | IC50 [1] | IC50 [2] | IC50 (read-out: IC50 (polymerase activity), HCV polymerase activity, list of compounds of Example 27, LITHIUM SALT) |
| --- | --- | --- | --- |
| Cc1ccc(C(=O)N(c2cc(-c3ccccc3)sc2C(=O)O)C2CCNCC2)cc1 | < 5 µM | – | – |
| O=C(O)c1sc(-c2ccccc2)cc1N(C(=O)c1ccc(Cl)cc1Cl)C1CCNCC1 | < 5 µM | – | – |
| CC1CCC(C(=O)N(c2cc(-c3ccccc3)sc2C(=O)O)C2CCNCC2)CC1 (stereo not drawn) | – | > 20 µM | 5 to 20 µM |
| CC1CNCCC1N(C(=O)c1ccc(Cl)cc1Cl)c1cc(-c2ccccc2)sc1C(=O)O (stereo not drawn) | – | < 5 µM | – |
| O=C(O)c1sc(-c2ccccc2)cc1N(C(=O)c1ccc(Cl)cc1Cl)C1CCCNCC1 (stereo not drawn) | – | < 5 µM | – |
